Results reported in patent US20160264649A1.

Tests used:
Test in all cases: cell-based or functional assay
[1] = target: HIV-1 Env of all viruses (n=162) of the cross-clade 162-pseudovirus panel
[2] = target: HIV-1 Env of the clade A viruses (n=26) of the cross-clade 162-pseudovirus panel
[3] = target: HIV-1 Env of the clade G viruses (n=15) of the cross-clade 162-pseudovirus panel
[4] = target: HIV-1 Env of the clade D viruses (n=25) of the cross-clade 162-pseudovirus panel
[5] = target: HIV-1 Env of the 162-pseudovirus panel representing all major circulating HIV-1 subtypes (HIV-1)
[6] = target: HIV-1 Env of the clade F viruses (n=15) of the cross-clade 162-pseudovirus panel
[7] = target: HIV-1 Env of the clade C viruses (n=27) of the cross-clade 162-pseudovirus panel
[8] = target: HIV-1 Env of the clade B viruses (n=31) of the cross-clade 162-pseudovirus panel
[9] = target: HIV-1 Env of the clade AG viruses (n=10) of the cross-clade 162-pseudovirus panel
[10] = target: HIV-1 Env of the clade AE viruses (n=10) of the cross-clade 162-pseudovirus panel

| Binder | Median IC50 (µg/ml) against all viruses [1] [µg/mL] | Median IC50 (µg/ml) against viruses neutralized with an IC50 <50 µg/ml [1] [µg/mL] | Percent viruses neutralized with an IC50 <50 µg/ml [1] [%] | Median IC50 (µg/ml) against all viruses [2] [µg/mL] | Percent viruses neutralized with an IC50 <50 µg/ml [2] [%] | Percent viruses neutralized with an IC50 <50 µg/ml [3] [%] | Median IC50 (µg/ml) against all viruses [4] [µg/mL] | Percent viruses neutralized with an IC50 <50 µg/ml [4] [%] | Median IC50 (µg/ml) against viruses neutralized with an IC50 <50 µg/ml [5] [µg/mL] | Percent viruses neutralized, IC50 < 0.1 µg/ml [5] [%] | Percent viruses neutralized, IC50 < 1 µg/ml [5] [%] | Percent viruses neutralized, IC50 < 50 µg/ml [5] [%] | Median IC50 (µg/ml) against all viruses [6] [µg/mL] | Percent viruses neutralized with an IC50 <50 µg/ml [6] [%] | Percent viruses neutralized with an IC50 <50 µg/ml [7] [%] | Percent viruses neutralized with an IC50 <50 µg/ml [8] [%] | Median IC50 (µg/ml) against all viruses [9] [µg/mL] | Median IC50 (µg/ml) against viruses neutralized with an IC50 <50 µg/ml [9] [µg/mL] | Percent viruses neutralized with an IC50 <50 µg/ml [9] [%] | Median IC50 (µg/ml) against all viruses [10] [µg/mL] | further results |
| --- | --- | --- | --- | --- | --- | --- | --- | --- | --- | --- | --- | --- | --- | --- | --- | --- | --- | --- | --- | --- | --- |
| 4838_L06 (PGT-121) (antibody, V domains shown) VH: QMQLQESGPGLVKPSETLSLTCSVSGASISDSYWSWIRRSPGKGLEWIGYVHKSGDTNYSPSLKSRVNLSLDTSKNQVSLSLVAATAADSGKYYCARTLHGRRIYGIVAFNEWFTYFYMDVWGNGTQVTVSS VL: SDISVAPGETARISCGEKSLGSRAVQWYQHRAGQAPSLIIYNNQDRPSGIPERFSGSPDSPFGTTATLTITSVEAGDEADYYCHIWDSRVPTKWVFGGGTTLTVL | 0.31 | 0.03 | 70 | 0.87 | 62 | 80 | 50 | 48 | 0.03 | 44 | 57 | 70 | 0.17 | 80 | 85 | 84 | 0.6 | 0.49 | 70 | 50 | Median IC50 (µg/ml) against viruses neutralized with an IC50 <50 µg/ml [4]: 0.01 µg/mL |
| 4877_D15 (PGT-122) (antibody, V domains shown) VH: QVHLQESGPGLVKPSETLSLTCNVSGTLVRDNYWSWIRQPLGKQPEWIGYVHDSGDTNYNPSLKSRVHLSLDKSKNLVSLRLTGVTAADSAIYYCATTKHGRRIYGVVAFKEWFTYFYMDVWGKGTSVTVSS VL: TFVSVAPGQTARITCGEESLGSRSVIWYQQRPGQAPSLIIYNNNDRPSGIPDRFSGSPGSTFGTTATLTITSVEAGDEADYYCHIWDSRRPTNWVFGEGTTLIVL | 2.02 | 0.05 | 65 | 3.69 | 58 | 80 | 50 | 40 | 0.05 | 36 | 48 | 65 | 1.29 | 80 | 81 | 84 | 38.5 | 2.75 | 60 | 50 | Median IC50 (µg/ml) against viruses neutralized with an IC50 <50 µg/ml [2]: 0.07 µg/mL; Median IC50 (µg/ml) against viruses neutralized with an IC50 <50 µg/ml [4]: 0.02 µg/mL; Median IC50 (µg/ml) against viruses neutralized with an IC50 <50 µg/ml [6]: 0.43 µg/mL; Median IC50 (µg/ml) against viruses neutralized with an IC50 <50 µg/ml [7]: 0.03 µg/mL; Median IC50 (µg/ml) against viruses neutralized with an IC50 <50 µg/ml [8]: 0.02 µg/mL; Percent viruses neutralized with an IC50 <50 µg/ml [10]: 0% |
| 4858_P08 (PGT-123) (antibody, V domains shown) VH: QLHLQESGPGLVKPPETLSLTCSVSGASINDAYWSWIRQSPGKRPEWVGYVHHSGDTNYNPSLKRRVTFSLDTAKNEVSLKLVDLTAADSATYFCARALHGKRIYGIVALGELFTYFYMDVWGKGTAVTVSS VL: SSMSVSPGETAKISCGKESIGSRAVQWYQQKPGQPPSLIIYNNQDRPAGVPERFSASPDFRPGTTATLTITNVDAEDEADYYCHIYDARGGTNWVFDRGTTLTVL | 0.35 | 0.03 |  | 0.69 | 58 | 80 | 50 | 48 | 0.03 | 40 | 54 | 67 | 0.31 | 80 | 85 | 81 | 8.04 | 0.61 | 60 | 50 | Median IC50 (µg/ml) against viruses neutralized with an IC50 <50 µg/ml [6]: 0.09 µg/mL; Median IC50 (µg/ml) against viruses neutralized with an IC50 <50 µg/ml [7]: 0.01 µg/mL; Percent viruses neutralized with an IC50 <50 µg/ml [10]: 0% |
| 5123_A06 (PGT-125) (antibody, V domains shown) VH: QSQLQESGPRLVEASETLSLTCNVSGESTGACTYFWGWVRQAPGKGLEWIGSLSHCQSFWGSGWTFHNPSLKSRLTISLDTPKNQVFLKLTSLTAADTATYYCARFDGEVLVYNHWPKPAWVDLWGRGIPVTVSS VL: QSALTQPPSASGSPGQSITISCNGTATNFVSWYQQFPDKAPKLIIFGVDKRPPGVPDRFSGSRSGTTASLTVSRLQTDDEAVYYCGSLVGNWDVIFGGGTTLTVL | 34.1 | 0.04 | 52 | 0.16 | 65 | 27 | 50 | 40 | 0.04 | 32 | 40 | 52 | 50 | 20 | 56 | 74 | 50 | 0.01 | 30 | 1.61 | Median IC50 (µg/ml) against viruses neutralized with an IC50 <50 µg/ml [2]: 0.01 µg/mL; Median IC50 (µg/ml) against all viruses [3]: 50 µg/mL; Median IC50 (µg/ml) against viruses neutralized with an IC50 <50 µg/ml [3]: 0.02 µg/mL; Median IC50 (µg/ml) against viruses neutralized with an IC50 <50 µg/ml [4]: 0.09 µg/mL; Median IC50 (µg/ml) against viruses neutralized with an IC50 <50 µg/ml [6]: 0.04 µg/mL; Median IC50 (µg/ml) against all viruses [7]: 37.5 µg/mL; Median IC50 (µg/ml) against viruses neutralized with an IC50 <50 µg/ml [7]: 1.83 µg/mL; Median IC50 (µg/ml) against all viruses [8]: 0.06 µg/mL; Median IC50 (µg/ml) against viruses neutralized with an IC50 <50 µg/ml [8]: 0.02 µg/mL; Median IC50 (µg/ml) against viruses neutralized with an IC50 <50 µg/ml [10]: 0.03 µg/mL; Percent viruses neutralized with an IC50 <50 µg/ml [10]: 60% |
